Laboratory results published in ChEMBL document CHEMBL3739372 (Bioorg Med Chem, 2015).

How the values were obtained:
Influenza B virus = assay: Ratio of IC50 for Influenza B virus wild type neuraminidase to IC50 for Influenza B virus neuraminidase R152K mutant
Influenza A virus [1] = assay: Ratio of IC50 for oseltamivir-resistant Influenza A virus H3N2 wild type neuraminidase to IC50 for oseltamivir-resistant Influenza A virus H3N2 neuraminidase E119V mutant
Influenza A virus [2] = assay: Ratio of IC50 for Influenza A virus H1N1 wild type neuraminidase to IC50 for Influenza A virus H1N1 neuraminidase H275Y mutant

Structure (SMILES)	Ratio IC50 (Influenza B virus)	Ratio IC50 (Influenza A virus [1])	Ratio IC50 (Influenza A virus [2])
CCOC(=O)c1cn(CC)c2ccc(-n3cc(C4=CCCCC4)nn3)cc2c1=O	1.4	0.13	3
CCOC(=O)C1=C[C@@H](OC(CC)CC)[C@H](NC(C)=O)[C@@H](N)C1 [OSELTAMIVIR]		27	380
